Results of unrelated studies side by side (data: NIAID ChemDB).

Common to all: tests in culture; organism: Mycobacterium fortuitum

Inhibition is in % at the dose shown (toxicity tests: loss of growth or viability). MIC50, MIC90 and the like: level of inhibition, or share of isolates inhibited. An empty or dashed field is not shown. Rows are shuffled and stem from different studies.

{"compound": "CCc1cc(C(N)=S)ccn1", "strain or isolate": "198 strains", "read by": "agar", "read-out": "inhibition", "dose": "5 µg/mL", "value": "<1%"}
{"compound": "Cc1noc2nc(C)n(/N=C/c3ccc([N+](=O)[O-])cc3)c(=O)c12", "strain or isolate": "PCM 672", "read by": "resazurin", "read-out": "MIC90", "value": "62.5 µg/mL"}
{"compound": "NC[C@H]1O[C@H](O[C@H]2[C@H](O)[C@@H](O[C@H]3O[C@H](CO)[C@@H](O)[C@H](N)[C@H]3O)[C@H](N)C[C@@H]2N)[C@H](N)C[C@@H]1O", "strain or isolate": "31 isolates", "read-out": "MIC50", "value": "64 µg/mL"}
{"compound": "NC1CCN(c2c(F)cc3c(=O)c(C(=O)O)cn(C4CC4)c3c2Cl)C1", "strain or isolate": "25 isolates", "read-out": "MIC50", "value": "0.5 µg/mL"}
{"compound": "NCC[C@H](O)C(=O)N[C@@H]1C[C@H](N)[C@@H](O[C@H]2O[C@H](CN)[C@@H](O)[C@H](O)[C@H]2O)[C@H](O)[C@H]1O[C@H]1O[C@H](CO)[C@@H](O)[C@H](N)[C@H]1O", "read by": "broth dilution", "read-out": "MIC50", "value": "≤2 µg/mL"}
{"compound": "CO[C@@]1(NC(=O)C(C(=O)O)c2ccc(O)cc2)C(=O)N2C(C(=O)O)=C(CSc3nnnn3C)CO[C@@H]21", "strain or isolate": "1048", "read-out": "MIC", "value": "50 µg/mL"}
{"compound": "Cc1noc2ncn(/N=C/c3ccc(C(F)(F)F)cc3)c(=O)c12", "strain or isolate": "PCM 672", "read by": "resazurin", "read-out": "MIC90", "value": ">100 µg/mL"}
{"compound": "C[C@H]1C[C@H](N)CN1c1cc2c(cc1F)c(=O)c(C(=O)O)cn2-c1ccc(F)cc1F", "strain or isolate": "25 isolates", "read-out": "MIC50", "value": "8 µg/mL"}
{"compound": "C[C@@H]1CN(c2c(F)c(N)c3c(=O)c(C(=O)O)cn(C4CC4)c3c2F)C[C@H](C)N1", "strain or isolate": "NCTC 10394", "read-out": "MBC", "value": "0.5 µg/mL"}
{"compound": "N/C(=N\\N=C\\c1ccc([N+](=O)[O-])cc1)c1ccccn1", "read-out": "MIC", "value": "256 µg/mL"}
{"compound": "C[C@H]1COc2c(N3CCN(C)CC3)c(F)cc3c(=O)c(C(=O)O)cn1c23", "strain or isolate": "25 isolates", "read-out": "MIC50", "value": "2 µg/mL"}
{"compound": "CC1COc2c(N3CCN(C)CC3)c(F)cc3c(=O)c(C(=O)O)cn1c23", "strain or isolate": "18367", "read-out": "MIC50", "value": "3.13 µg/mL"}
{"compound": "C[C@@H]1CN(c2c(F)c(N)c3c(=O)c(C(=O)O)cn(C4CC4)c3c2F)C[C@H](C)N1", "strain or isolate": "ATCC 6841", "read-out": "MBC", "value": "0.3 µg/mL"}
{"compound": "CO[C@@]1(NC(=O)Cn2cnnn2)C(=O)N2C(C(=O)O)=C(CSc3nnc(C)s3)CSC21", "strain or isolate": "1059", "read-out": "MIC", "value": "100 µg/mL"}
{"compound": "Cc1noc(N)c1C(=O)N/N=C/c1ccc(O)cc1", "strain or isolate": "PCM 672", "read by": "resazurin", "read-out": "MIC90", "value": ">100 µg/mL"}
{"compound": "Cc1ccc(/C=N/N=C(/N)c2ccccn2)c(C)c1", "read-out": "MIC", "value": "128 µg/mL"}
{"compound": "NCC[C@H](O)C(=O)N[C@@H]1C[C@H](N)[C@@H](O[C@H]2O[C@H](CN)[C@@H](O)[C@H](O)[C@H]2O)[C@H](O)[C@H]1O[C@H]1O[C@H](CO)[C@@H](O)[C@H](N)[C@H]1O", "strain or isolate": "31 isolates", "read-out": "MBC90", "value": "64 µg/mL"}
{"compound": "CO[C@@]1(NC(=O)Cc2ccccc2)C(=O)N2C(C(=O)O)=C(COC(C)=O)CSC21", "strain or isolate": "AO5", "read-out": "MIC", "value": "50 µg/mL"}
{"compound": "COc1ccccc1/C=N/N=C(/N)c1ccccn1", "read-out": "MIC", "value": "256 µg/mL"}
{"compound": "C[C@@H]1CN(c2c(F)c(N)c3c(=O)c(C(=O)O)cn(C4CC4)c3c2F)C[C@H](C)N1", "strain or isolate": "25 isolates", "read-out": "MBC90", "value": "2 µg/mL"}
{"compound": "CN1CCN(c2cc3c(cc2F)c(=O)c(C(=O)O)cn3C2CC2)CC1", "strain or isolate": "16 isolates", "read-out": "MIC50", "value": "0.125 µg/mL"}
{"compound": "COc1c(N2CCNC(C)C2)c(F)cc2c(=O)c(C(=O)O)cn(C3CC3)c12", "strain or isolate": "20 strains", "read-out": "MIC50", "value": "0.2 µg/mL"}
{"compound": "Cc1c(F)c(N2CCNC(C)C2)cc2c1c(=O)c(C(=O)O)cn2C1CC1", "strain or isolate": "20 strains", "read-out": "MIC50", "value": "6.25 µg/mL"}
{"compound": "N/C(=N/N=C/c1ccccc1Br)c1ccccn1", "read-out": "MIC", "value": "256 µg/mL"}
{"compound": "CO[C@@]1(NC(=O)CCCC(N)C(=O)O)C(=O)N2C(C(=O)O)=C(COC(N)=O)CSC21", "strain or isolate": "914-8", "read-out": "MIC", "value": "100 µg/mL"}
{"compound": "Cc1noc2ncn(/N=C/c3ccc(Cl)cc3)c(=O)c12", "strain or isolate": "PCM 672", "read by": "resazurin", "read-out": "MIC90", "value": ">100 µg/mL"}
{"compound": "Clc1ccc2c(c1)nc1cc(Nc3ccccc3)c(=NC3CCCCC3)cc-1n2-c1ccccc1", "strain or isolate": "TB87", "read-out": "MIC", "value": "2 µg/mL"}
{"compound": "CN[C@@H]1[C@H](O[C@H]2[C@H](O[C@H]3[C@H](O)[C@@H](O)[C@H](N=C(N)N)[C@@H](O)[C@@H]3N=C(N)N)O[C@@H](C)[C@]2(O)C=O)O[C@@H](CO)[C@H](O)[C@H]1O", "strain or isolate": "ATCC 6841", "read-out": "MBC", "value": ">64 µg/mL"}
{"compound": "N/C(=N/N=C/c1ccccc1)c1ccccn1", "read-out": "MIC", "value": "256 µg/mL"}

Repeating the final 3 entries:

compound	strain or isolate	read by	read-out	dose	value
Clc1ccc2c(c1)nc1cc(Nc3ccccc3)c(=NC3CCCCC3)cc-1n2-c1ccccc1	TB87	-	MIC	-	2 µg/mL
CN[C@@H]1[C@H](O[C@H]2[C@H](O[C@H]3[C@H](O)[C@@H](O)[C@H](N=C(N)N)[C@@H](O)[C@@H]3N=C(N)N)O[C@@H](C)[C@]2(O)C=O)O[C@@H](CO)[C@H](O)[C@H]1O	ATCC 6841	-	MBC	-	>64 µg/mL
N/C(=N/N=C/c1ccccc1)c1ccccn1	-	-	MIC	-	256 µg/mL